How the values were obtained:
[1] = molecular target: S1-C9 (SARS-CoV (Tor2 isolate)) (UniProt P59594); assay: phage ELISA, S1-C9 coated 0.2 µg per well
[2] = molecular target: S1(327-510)-Ig (SARS-CoV (Tor2 isolate); human) (UniProt P59594); assay: radioimmunoprecipitation with 80R scFv beads, normalized to Protein A
[3] = molecular target: S1-Ig (SARS-CoV (Tor2 isolate); human) (UniProt P59594); assay: SPR (BIAcore 3000), S1-Ig amine-coupled to CM5 chip

Substance: 80R scFv
- A450 [1]: > 1 A450
- percent of the amount that Protein A precipitated [2]: 5%
- Ka [3]: 3.1e+07 M⁻¹
- Kd [3]: 32.3 nM
- koff [3]: 0.00836 s⁻¹
- kon [3]: 229000 M⁻¹ s⁻¹

— patent US7750123B2
